Pooled drug test results. Numbers come from NIAID ChemDB, via PubChem.

All rows: whole-cell or culture tests; species: Candida albicans

ECn: concentration that inhibits the pathogen or its effect by n%. MIC50, MIC90 and the like: level of inhibition, or share of isolates inhibited. Blank or dashed fields: not listed here. Rows are shuffled and stem from different studies. a–b is a range or a potency band.

| SMILES | method | strain | read-out | value |
|---|---|---|---|---|
| Cc1ccc(C(=O)c2cc(C)ccc2OCc2n[nH]c(=S)n2N)cc1 |  |  | MIC | 10.5 µM |
| C[C@@H]1[C@H](O)[C@@H](C)/C=C/C=C/C=C/C=C/C=C/C=C/C=C/[C@H](OC2O[C@H](C)[C@@H](O)[C@H](N(CCCN)CCCN)[C@@H]2O)C[C@@H]2O[C@](O)(C[C@@H](O)C[C@@H](O)[C@H](O)CC[C@@H](O)C[C@@H](O)CC(=O)O[C@H]1C)C[C@H](O)[C@H]2C(=O)NCCCN1CCOCC1 |  | CAF2-1 | MIC | 0.25 µM |
| C[C@H]1[C@H](O)[C@@H](C)/C=C/C=C/C=C/C=C/C=C/C=C/C=C/[C@H](O[C@@H]2O[C@H](C)[C@@H](O)[C@H](N)[C@@H]2O)C[C@@H]2O[C@](O)(C[C@@H](O)C[C@@H](O)CC[C@H](O)[C@@H](O)C[C@@H](O)CC(=O)O[C@H]1C)C[C@H](O)[C@H]2C(=O)O |  | A9540 | MIC | 0.4 µg/mL |
| CCCCCCCCCCCC1=NCCN1C(=S)c1ccc(O)cc1O |  | 10 isolates | MIC | 25 µg/mL |
| C[C@@H](N1CCN(c2ccc(F)cc2)C1=O)C(O)(Cn1cncn1)c1ccc(F)cc1F |  | TA | MIC | <0.016 µg/mL |
| CSc1c(S(=O)c2ccccc2)c(O)c2ccccc2c1O |  |  | MIC50 | >3 µg/mL |
| Cc1ccc(OCc2n[nH]c(=S)n2N)c(C(=O)c2cccc(Cl)c2)c1 |  |  | MIC | 3 µM |
| O=C1CSC(c2ccccn2)N1c1ccc(Cl)cn1 | agar | NCIM 3102 | MIC | 57 µg/mL |
| CC(C)=CCC/C(C)=C/CN=C(N)NC/C=C(\C)CCC=C(C)C |  | ATCC 90028 | MIC | 250 µg/mL |
| O=c1c(OC2CCCC2)c(N2CCN(S(=O)(=O)NCc3ccccc3)CC2)cnn1-c1cccc(Cl)c1 | broth dilution | CLY16996 | MIC | 8 µg/mL |
| C[C@H]1[C@H](O)[C@@H](C)/C=C/C=C/C=C/C=C/C=C/C=C/C=C/[C@H](O[C@@H]2O[C@H](C)[C@@H](O)[C@H](N)[C@@H]2O)C[C@@H]2O[C@](O)(C[C@@H](O)C[C@@H](O)CC[C@H](O)[C@@H](O)C[C@@H](O)CC(=O)O[C@H]1C)C[C@H](O)[C@H]2C(=O)O |  | A26 | MIC | 0.25 µg/mL |
| Clc1ccc(COC(Cn2ccnc2)c2ccc(Cl)cc2Cl)c(Cl)c1 | broth dilution | MTCC 277 | MIC | >78.1 µg/mL |
| Oc1ccc(C(=S)N2CCN=C2c2ccccc2)c(O)c1 |  | ATCC 10231 | MIC | 100 µg/mL |
| C[C@@H](N1CCN(c2ccc(OCC(F)(F)C(F)F)cc2)C1=O)C(O)(Cn1cncn1)c1ccccc1F |  | TA | MIC | <0.016 µg/mL |
| C/C(Cl)=C/C=C/C=C/C=C/C=C/C(O)=C1\C(=O)[C@H](CC(N)=O)N(C2OC[C@@H](O)[C@H](O)[C@@H]2O[C@@H]2OC[C@@H](O[C@@H]3O[C@H](C)[C@@H](O)[C@@H]3O)[C@@H](O)[C@@H]2O)C1=O |  | Wild type (ATCC 32354) | MIC100 | 1.95 µg/mL |
| CC(C)=CCC/C(C)=C/CN(C/C=C(\C)CCC=C(C)C)C(=N)N |  | ATCC 90028 | MIC | 250 µg/mL |
| O=C1C(Sc2ccccc2)=C(Sc2ccccc2)C(=O)c2ccccc21 |  |  | MIC50 | 2–3 µg/mL |
| Cc1c(O)cccc1C(=O)N[C@@H](CSc1ccccc1)[C@H](O)CN1C[C@H]2CCCC[C@H]2C[C@H]1C(=O)NC(C)(C)C |  | I106A | MIC | 64 µg/mL |
| C[N+](C)(C)CCOP(=O)([O-])OCCCCCCCCCCCCCCCCCCCCCCOP(=O)([O-])OCC[N+](C)(C)C |  |  | MIC | 1.25 µg/mL |
| C[C@H]1COC(=O)C2OC2=CC[C@H](O)[C@@H]1O | absorbance |  | EC50 | 7 µg/mL |
| CC[C@H](C)/C=C(C)/C=C/C1=CC2=C(Cl)C(=O)[C@@]3(C)OC(=O)C(C(C)=O)=C3C2=CO1 |  |  | EC50 | 16.7 µg/mL |
| C[C@@H]1[C@H](O)[C@@H](C)/C=C/C=C/C=C/C=C/C=C/C=C/C=C/[C@H](OC2O[C@H](C)[C@@H](O)[C@H](N(CCCN)CCCN)[C@@H]2O)C[C@@H]2O[C@](O)(C[C@@H](O)C[C@@H](O)[C@H](O)CC[C@@H](O)C[C@@H](O)CC(=O)O[C@H]1C)C[C@H](O)[C@H]2C(=O)O |  | DSY296 | MIC | 0.1 µM |
| CCCCCCCCOc1ccc(C(=O)NC2C[C@@H](O)[C@@H](O)NC(=O)C3[C@@H](O)[C@@H](C)CN3C(=O)C(C(C)O)NC(=O)C([C@H](O)[C@@H](O)c3ccc(O)cc3)NC(=O)C3C[C@@H](O)CN3C(=O)C(C(C)O)NC2=O)cc1 |  | MY1208 | MIC | 0.5 µg/mL |
| COc1ccc(NC2=C(S(=O)c3ccc(O)cc3)C(=O)c3ccccc3C2=O)cc1 |  |  | MIC50 | 0.53–1 µg/mL |
| Cc1cccnc1N1C(=O)CSC1c1c(C)cccc1C | agar | NCIM 3102 | MIC | 40 µg/mL |
| CN[C@@H]1[C@H](O[C@@H]2OC[C@@H](O)[C@H](O)[C@H]2O)[C@@H](O)[C@H](O[C@H]2c3cc(C)c(C(=O)N[C@H](C)C(=O)O)c(O)c3-c3c(cc4c(c3O)C(=O)c3cc(OC)cc(O)c3C4=O)[C@@H]2O)O[C@@H]1C |  | IAM4888 | MIC | 6.3 µg/mL |
| CC(C)=CCc1cc(O)c(O)c(CC=C(C)C)c1-c1oc2c(CC=C(C)C)c(O)cc(O)c2c(=O)c1O |  | NIH B311 | MIC | >100 µg/mL |
| CCCC(O)C/C=C\C=C\C(=O)OC[C@H]1O[C@@H](O[C@@H]2[C@H](OC(=O)/C=C/C=C/CC(O)/C(C)=C/C=C/CCC(C)CC)[C@@H](O)[C@]3(OCc4cc(O)cc(O)c43)O[C@@H]2CO)[C@H](O)[C@@H](O)[C@H]1O |  | MY1585 | MIC | 1 µg/mL |
| COc1ccc(OC)c(C2SCC(=O)N2CCc2ccccc2)c1 | agar | NCIM 3102 | MIC | 55 µg/mL |
| O=[N+]([O-])Sc1c(S(=O)c2ccccc2)c(O)c2ccccc2c1O |  |  | MIC50 | >3 µg/mL |
| C[C@@H]1[C@H](O)[C@@H](C)/C=C/C=C/C=C/C=C/C=C/C=C/C=C/[C@H](O[C@@H]2O[C@H](C)[C@@H](O)[C@H](N)[C@@H]2O)C[C@@H]2O[C@](O)(C[C@@H](O)C[C@@H](O)[C@H](O)CC[C@@H](O)C[C@@H](O)CC(=O)O[C@H]1C)C[C@H](O)[C@H]2C(=O)O | broth dilution | ATCC 66396 | MIC80 | 0.125 µg/mL |
| Cc1ccc(C(=O)c2cc(C)ccc2OCc2nnc3n2N=C(c2ccccc2)CS3)cc1 |  |  | MIC | 11.5 µM |
| COc1cc(O)c2c(c1CC=C(C)C)O[C@H](c1c(CC=C(C)C)cc(OC)c(OC)c1CC=C(C)C)[C@@H](O)C2=O |  | NIH B311 | MIC | >100 µg/mL |
| O=C(c1ccccc1)c1cc(Cl)ccc1OCc1nnc2n1N=C(c1ccccc1)CS2 |  |  | MIC | 3 µM |
| Cc1cnc(N2C(=O)CSC2c2c(Cl)cccc2Cl)c(C)c1 | agar | NCIM 3102 | MIC | 42 µg/mL |
| COc1ccc(C(=O)c2cc(C)ccc2OCc2n[nH]c(=S)o2)cc1 |  |  | MIC | 8 µM |
| CC1=CCC2C(C)(C)CCCC2(C)C1CN=C(C)N | broth dilution |  | MIC | 32 µg/mL |
| C[C@@H](n1ccn(-c2ccc(OCC(F)(F)C(F)F)cc2)c1=O)C(O)(Cn1cncn1)c1ccccc1F |  | TA | MIC | <0.016 µg/mL |